Experiments:
Assay in all cases: cell-based or functional assay
[1] = target: HIV-1 92UG024 envelope protein (Env) on pseudovirus (HIV-1)
[2] = target: HIV-1 92BR020 envelope protein (Env) on pseudovirus (HIV-1)
[3] = target: HIV-1 IAVI-C3 envelope protein (Env) on pseudovirus (HIV-1)
[4] = target: HIV-1 93IN905 envelope protein (Env) on pseudovirus (HIV-1)
[5] = target: aMLV envelope protein on pseudovirus
[6] = target: HIV-1 CMU02 envelope protein (Env) on pseudovirus (HIV-1)
[7] = target: HIV-1 NL43 envelope protein (Env) on pseudovirus (HIV-1)
[8] = target: HIV-1 APV-6 envelope protein (Env) on pseudovirus (HIV-1)
[9] = target: HIV-1 APV-13 envelope protein (Env) on pseudovirus (HIV-1)
[10] = target: HIV-1 IAVI-C22 envelope protein (Env) on pseudovirus (HIV-1)
[11] = target: HIV-1 92TH021 envelope protein (Env) on pseudovirus (HIV-1)
[12] = target: HIV-1 92RW020 envelope protein (Env) on pseudovirus (HIV-1)
[13] = target: HIV-1 93UG077 envelope protein (Env) on pseudovirus (HIV-1)
[14] = target: HIV-1 IAVI-C18 envelope protein (Env) on pseudovirus (HIV-1)
[15] = target: HIV-1 92UG005 envelope protein (Env) on pseudovirus (HIV-1)
[16] = target: HIV-1 94UG103 envelope protein (Env) on pseudovirus (HIV-1)
[17] = target: HIV-1 APV-17 envelope protein (Env) on pseudovirus (HIV-1)
[18] = target: HIV-1 Env of isolate MG RM-A-002 (pseudovirus) (HIV-1)
[19] = target: HIV-1 Env of isolate MG RM-A-004 (pseudovirus) (HIV-1)
[20] = target: HIV-1 Env of isolate MG RM-A-003 (pseudovirus) (HIV-1)
[21] = target: HIV-1 Env of isolate MG RM-C-005 (HIV-1)
[22] = target: HIV-1 Env of isolate MG RM-C-001 (HIV-1)
[23] = target: HIV-1 Env of isolate MG RM-C-007 (HIV-1)
[24] = target: HIV-1 Env of isolate MG RM-C-004 (HIV-1)
[25] = target: HIV-1 Env of isolate MG RM-C-010 (HIV-1)
[26] = target: HIV-1 Env of isolate MG RM-C-012 (HIV-1)
[27] = target: HIV-1 Env of isolate MG RM-C-013 (HIV-1)
[28] = target: HIV-1 Env of isolate MG RM-C-008 (HIV-1)
[29] = target: HIV-1 Env of isolate MG RM-C-002 (HIV-1)
[30] = target: HIV-1 Env of isolate MG RM-C-006 (HIV-1)
[31] = target: HIV-1 Env of isolate MG RM-C-005 (HIV-1); remark: listed apart in the source

B1: 1460_G14 (PGG14) (antibody, V domains shown)
VH: QVLLVQSGTEVKKPGSSVKVSCQASGGAFSSYAFSWVRQAPGQGLEWMGMITPVFGETKYAPRFQGRLTLTAEESLSTTYMELRSLTSDDTAFYYCTRDRRVVPMATDNWLDPWGQGTLVTVSS
VL: DIQLTQSPSSLSASVGDRVTVTCRASQTIHTYLNWYQQIPGKAPKLLIYGASTLQSGVPSRFSGSGSGTDFTLTINSLQPEDFATYYCQQSYSTPRTFGQGTRLDIKR
[1]
  neutralization IC50: > 50 µg/mL
[2]
  neutralization IC50: > 50 µg/mL
[3]
  neutralization IC50: > 50 µg/mL
[4]
  neutralization IC50: > 50 µg/mL
[5]
  neutralization IC50: > 50 µg/mL
[6]
  neutralization IC50: > 50 µg/mL
[7]
  neutralization IC50: 0.172 µg/mL
[8]
  neutralization IC50: > 50 µg/mL
[9]
  neutralization IC50: > 50 µg/mL
[10]
  neutralization IC50: > 50 µg/mL
[11]
  neutralization IC50: > 50 µg/mL
[12]
  neutralization IC50: > 50 µg/mL
[13]
  neutralization IC50: > 50 µg/mL
[14]
  neutralization IC50: > 50 µg/mL
[15]
  neutralization IC50: > 50 µg/mL
[16]
  neutralization IC50: > 50 µg/mL
[17]
  neutralization IC50: > 50 µg/mL

B2: 4995_E20 (PGT-142) (antibody, V domains shown)
VH: QVQLVQSGPEVKKPGSSVKVSCKASGNTFSKYDVHWVRQATGQGLEWVGWISHERDKTESAQRFKGRVTFTRDTSATTAYMELRGLTSDDTAIYYCTRGSKHRLRDYVLYDDYGLINYQEWNDYLEFLDVWGHGTAVTVSS
VL: DTVVTQSPLSLPVTPGEAASMSCSSTQSLRHSNGANYLAWYQHKPGQSPRLLIRLGSQRASGVPDRFSGSGSGTHFTLKISRVEAEDAAIYYCMQGLNRPWTFGKGTKLEIK
[18]
  IC50 (µg/mL), pseudovirus neutralization: 0.007 µg/mL
[19]
  IC50 (µg/mL), pseudovirus neutralization: 0.002 µg/mL

B3: 4970_K22 (PGT-144) (antibody, V domains shown)
VH: QVQLVQSGAEVKKPGSSVKVSCKASGNTFRKYDVHWVRQATGQGLEWVGWMSHEGDKTESAQRFKGRVSFTRDNSASTAYIELRGLTSDDTAIYYCTGGSKHRLRDYVLYDDYGLINQQEWNDYLEFLDVWGHGTAVTVSS
VL: DTVVTQSPLSLSVTPGEAASMSCTSTQSLRHSNGANYLAWYQHKPGQSPRLLIRLGSQRASGVPDRFSGSGSGTHFTLKISRVEADDAAIYYCMQGLNRPWTFGKGTKLEIK
[20]
  IC50 (µg/mL), pseudovirus neutralization: > 50 µg/mL

B4: 5114_A19 (PGT-128) (antibody, V domains shown)
VH: QPQLQESGPTLVEASETLSLTCAVSGDSTAACNSFWGWVRQPPGKGLEWVGSLSHCASYWNRGWTYHNPSLKSRLTLALDTPKNLVFLKLNSVTAADTATYYCARFGGEVLRYTDWPKPAWVDLWGRGTLVTVSS
VL: QSALTQPPSASGSPGQSITISCTGTSNNFVSWYQQHAGKAPKLVIYDVNKRPSGVPDRFSGSKSGNTASLTVSGLQTDDEAVYYCGSLVGNWDVIFGGGTKLTVL
[21]
  IC50: 0.03 µg/mL

B5: PGT-142 (antibody, V domains shown)
VH: QVQLVQSGPEVKKPGSSVKVSCKASGNTFSKYDVHWVRQATGQGLEWVGWISHERDKTESAQRFKGRVTFTRDTSATTAYMELRGLTSDDTAIYYCTRGSKHRLRDYVLYDDYGLINYQEWNDYLEFLDVWGHGTAVTVSS
VL: DTVVTQSPLSLPVTPGEAASMSCSSTQSLRHSNGANYLAWYQHKPGQSPRLLIRLGSQRASGVPDRFSGSGSGTHFTLKISRVEAEDAAIYYCMQGLNRPWTFGKGTKLEIK
[22]
  neutralization IC50: > 50 µg/mL
[23]
  neutralization IC50: > 50 µg/mL
[24]
  neutralization IC50: > 50 µg/mL
[25]
  neutralization IC50: 0.07 µg/mL
[26]
  neutralization IC50: > 50 µg/mL
[27]
  neutralization IC50: > 50 µg/mL
[28]
  neutralization IC50: > 50 µg/mL

B6: PGT-145 (antibody, V domains shown)
VH: QVQLVQSGAEVKKPGSSVKVSCKASGNSFSNHDVHWVRQATGQGLEWMGWMSHEGDKTGLAQKFQGRVTITRDSGASTVYMELRGLTADDTAIYYCLTGSKHRLRDYFLYNEYGPNYEEWGDYLATLDVWGHGTAVTVSS
VL: EVVITQSPLFLPVTPGEAASLSCKCSHSLQHSTGANYLAWYLQRPGQTPRLLIHLATHRASGVPDRFSGSGSGTDFTLKISRVESDDVGTYYCMQGLHSPWTFGQGTKVEIK
[29]
  neutralization IC50: 0.008 µg/mL
[22]
  neutralization IC50: > 50 µg/mL
[23]
  neutralization IC50: > 50 µg/mL
[30]
  neutralization IC50: 0.01 µg/mL
[24]
  neutralization IC50: > 50 µg/mL
[31]
  neutralization IC50: > 50 µg/mL
[27]
  neutralization IC50: > 50 µg/mL
[28]
  neutralization IC50: > 50 µg/mL

Reference: patent US20200024330A1 (published 2020)
